The values below come from paper PMC11239678, “Molecular basis for receptor recognition and broad host tropism for merbecovirus MjHKU4r-CoV-1” (2024).

Targets include camel CD26, camel; cattle CD26, cattle (UniProt P81425); goat CD26, goat; horse CD26, horse; macaque CD26, macaque; marmoset CD26, marmoset; pig CD26, pig (UniProt P22411); sheep CD26, sheep.
Holding throughout (assay): SPR
The target of test [1] is Malayan pangolin CD26 (Malayan pangolin).

Consider “MjHKU4r-CoV-1 spike (S) protein receptor-binding domain”, for which the Kd in the test with camel CD26, camel worked out at 480 nM; with cattle CD26, cattle, 200 nM; with goat CD26, goat, 220 nM; with horse CD26, horse it was 170 nM; with macaque CD26, macaque, 710 nM; with marmoset CD26, marmoset it was 240 nM. Besides, the Kd amounted to 360 nM with pig CD26, pig and 210 nM with sheep CD26, sheep.

Substance “MjHKU4r-CoV-1 spike (S) protein receptor-binding domain (domain or fragment)” came in with an equilibrium dissociation constant (Kd) in [1] of 300 nM.
